This is a selection; strong and weak results do not stand in their true shares. Calls of active or inactive are those of the source. No stated cut-off is given here; in the data, active means inhibition above about 38%; inactive means the rest.
target: Serine protease Rv3671c (Mycobacterium tuberculosis (strain ATCC 25618 / H37Rv)) (UniProt P9WHR9); assay: Rv3671c serine protease inhibitors, primary screen, biochemical, fluorescence polarization, M. tuberculosis H37Rv (AID 2606); settings: at 5.96 µM; hits give high values;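 further: extracellular domain of Rv3671c used as enzyme; 0% = enzyme with DMSO and 100% = no enzyme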

The chains behind the UniProt entries cited, without tags or fusion partners. Where a name states a change or a piece, a line headed by the entry shows the natural chain unless it says otherwise.
UniProt P9WHR9: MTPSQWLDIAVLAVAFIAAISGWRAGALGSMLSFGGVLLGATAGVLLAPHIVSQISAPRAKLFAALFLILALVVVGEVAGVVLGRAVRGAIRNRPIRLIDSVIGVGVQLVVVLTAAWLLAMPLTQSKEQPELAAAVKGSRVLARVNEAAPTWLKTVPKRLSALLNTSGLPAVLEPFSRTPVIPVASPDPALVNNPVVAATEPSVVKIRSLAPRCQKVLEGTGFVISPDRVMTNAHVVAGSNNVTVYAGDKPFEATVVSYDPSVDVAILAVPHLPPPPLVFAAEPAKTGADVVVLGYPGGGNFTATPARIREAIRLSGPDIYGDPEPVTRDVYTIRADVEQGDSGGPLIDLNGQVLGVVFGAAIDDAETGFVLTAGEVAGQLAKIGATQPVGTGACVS

| Compound | inhibition |
| --- | --- |
| CC(C)c1ccc(OP(=O)(Nc2ccccn2)Oc2ccccc2F)cc1 (stereo unspecified) | inactive: 2.91% |
| ClCCSc1nnc(-c2cccnc2)o1 | inactive: -9.01% |
| O=[N+]([O-])c1cc([N+](=O)[O-])c(-c2ccn[nH]2)s1 | inactive: -9.42% |
| CC(C)NC(=O)NP(=O)(Oc1ccccc1)Oc1ccccc1 | inactive: -6.05% |
| CCN(CC)C(=S)SC(NC=O)C(Cl)(Cl)Cl (stereo unspecified) | inactive: -3.44% |
| COc1cc(C(=O)NCC2(N3CCOCC3)CCCCC2)ccc1OCC(C)C | inactive: -0.58% |
| C[As](=O)(O)c1cccc(C(=O)O)c1 | inactive: -11.3% |
| O=[As](O)(c1ccc(O)cc1)c1ccccc1O | inactive: 0.01% |
| Cc1ccc2nc3c(c(C)c2c1)CC(C(Cl)Cl)S3 (stereo unspecified) | inactive: -13.2% |
| Cc1ccc(OP(=O)(Nc2ccc([N+](=O)[O-])cn2)Oc2ccc(C)cc2)cc1 | inactive: -8.56% |
| COc1ccc(N/C(=N/P(=O)(N2CCOCC2)N2CCOCC2)N2CCOCC2)cc1 | inactive: -0.8% |
| Cc1cc(=O)[nH]c(N[N+](=O)[O-])n1 | inactive: 2.5% |
| O=C(OC1CN2CCC1CC2)C12CC3CC(CC(C3)C1)C2 (stereo unspecified) | inactive: -4.91% |
| Cc1c2c(nc3ccccc13)SC(C(Cl)Cl)C2 (stereo unspecified) | inactive: 9.17% |
| COc1cc(I)ccc1[As](=O)(O)O | inactive: -2.8% |
| COc1ccc2nc(NP(=O)(c3ccccc3)c3ccccc3)sc2c1 | inactive: -2.12% |
| CCOC(=O)c1ccc(NC(=O)C(C)(CCl)SC)cc1 (stereo unspecified) | inactive: -5.65% |
| O=C(OC1CN2CCC1CC2)c1cccc([N+](=O)[O-])c1 (stereo unspecified) | inactive: 4.68% |
| CCC(C)N(CC(C)C)C(=S)SC(NC(C)=O)C(Cl)(Cl)Cl (stereo unspecified) | inactive: 1.73% |
| COP1(=S)c2c(C)nn(CCC#N)c2N=C(c2ccc(F)cc2)N1C (stereo unspecified) | inactive: -8.1% |
| O=C(Nc1ccncc1[N+](=O)[O-])c1ccc([N+](=O)[O-])cc1[N+](=O)[O-] | inactive: -6.49% |
| O=C(COc1ccccc1)OC1CN2CCC1CC2 (stereo unspecified) | inactive: -0.34% |
| CCOC(=O)Nc1cccc([As](=O)(O)O)c1 | inactive: -2.79% |
| O=P(Nc1ccccn1)(c1cccc2ccccc12)c1cccc2ccccc12 | inactive: 6.13% |
| Cc1cc(SC(NC=O)C(Cl)(Cl)Cl)ncn1 (stereo unspecified) | inactive: 5.39% |
| CCOC(=O)Nc1ccc([As](=O)(O)O)c(O)c1 | inactive: 5.67% |

| Compound | inhibition |
| --- | --- |
| Cc1cc(SC(NC(=O)c2ccccc2)C(Cl)(Cl)Cl)nc(C(C)C)n1 (stereo unspecified) | inactive: 6.94% |
| O=P1(Nc2ncccn2)COc2ccccc2OC1 | inactive: 2.81% |
| O=[As](O)(c1cccs1)c1cccs1 | inactive: 1.29% |
| Cc1ccc(OCC(=O)OC2CN3CCC2CC3)cc1 (stereo unspecified) | inactive: -1.04% |
| O=P1(Nc2ccc(Br)cn2)COc2ccccc2OC1 | inactive: 1.11% |
| NS(=O)(=O)c1cccc(NC(=O)COC(=O)C(O)(c2ccccc2)c2ccccc2)c1 | inactive: 4.28% |
| Nc1cccc([As](=O)(O)c2ccccc2)c1 | inactive: 8.07% |
| CC1CCC(C(C)C)C(OP(=O)(Nc2ccccn2)c2ccccc2)C1 (stereo unspecified) | inactive: 6.73% |
| Cc1ccc(C(=O)OC2CN3CCC2CC3)cc1 (stereo unspecified) | inactive: -10.4% |
| Cc1nn(-c2ccccc2)c2c1P(=O)(N1CCOCC1)N(C)C(c1ccccc1)=N2 (stereo unspecified) | inactive: -4.92% |
| O=C(/C=C/c1ccccc1)OC1CN2CCC1CC2 (stereo unspecified) | inactive: -5.68% |
| CN(C)C1(CNC(=O)c2ccc(S(C)(=O)=O)cc2)CCCCC1 | inactive: -3.02% |
| COc1ccccc1CNC(=O)COC(=O)C(O)(c1ccccc1)c1ccccc1 | inactive: 1.68% |
| CC1(CBr)Cn2c(nc3ccccc3c2=O)S1 (stereo unspecified) | inactive: -2.08% |
| O=[As](O)(c1ccccc1Br)c1ccccc1Br | inactive: -1.65% |
| CC(C)/C=N\N=C(\N)N[N+](=O)[O-] | inactive: 1.04% |
| CN(C(=O)Cc1ccc(Cl)c(Cl)c1)[C@@H]1CCCC[C@H]1N1CCCC1 | inactive: 12.3% |
| CCOP(=O)(Nc1ccc(C)cn1)OCC | inactive: -4.38% |
| CN(CCCl)Cc1cc(Cl)c(NC2=NCCN2)c(Cl)c1 | inactive: -1.22% |
| CCOP(=O)(NC(=NC(C)c1ccccc1)NC(C)c1ccccc1)OCC (stereo unspecified) | inactive: -7.3% |
| O=P1(Nc2ccccn2)COc2ccccc2OC1 | inactive: -7.47% |
| CCC1=CC2Cc3nc4ccc(Cl)cc4c(N)c3C(C1)C2 (stereo unspecified) | inactive: 1.97% |
| CC(C)(C)C(=O)NC(Sc1ncccn1)C(Cl)(Cl)Cl (stereo unspecified) | inactive: 0.49% |
| Clc1n[nH]nc1-c1nn[nH][15n]1 | inactive: 3.19% |
| CCCOP(=S)(Nc1nc(N)cc(=O)[nH]1)OCCC | inactive: -8.02% |
| Nc1cccc2c([As](=O)(O)O)cccc12 | inactive: -31.5% |

| Compound | inhibition |
| --- | --- |
| Cc1ccc(NCCc2c([N+](=O)[O-])cc([N+](=O)[O-])cc2[N+](=O)[O-])cc1 | inactive: 7.98% |
| CCOP(=O)(Nc1cccc2ccccc12)OCC | inactive: -3.94% |
| COc1cc(C2NCCC3(OCCO3)C2(C)C)cc(OC)c1OC (stereo unspecified) | inactive: -3.52% |
| CS(=O)(=O)c1ccc(Cl)c(NC(=O)COC(=O)C(O)(c2ccccc2)c2ccccc2)c1 | inactive: 1.94% |
| O=[As](O)(O)c1cccnc1 | inactive: 0.31% |
| COc1cc(C(=O)NCC2(N3CCOCC3)CCCCC2)cc(Cl)c1OC(C)C | inactive: -4.59% |
| O=C(OC1CN2CCC1CC2)c1ccc(Cl)cc1 (stereo unspecified) | inactive: 5.73% |
| Cc1cccc(OCC(=O)OC2CN3CCC2CC3)c1 (stereo unspecified) | inactive: -1.57% |
| O=[As](O)(c1cccc(O)c1)c1cccc(O)c1 | inactive: 6.88% |
| NC(=O)Nc1ccc([As](=O)(O)O)cc1 | inactive: 0.43% |
| CN(C(=O)Cc1ccc(Cl)c(Cl)c1)[C@H]1CC[C@@]2(CCCO2)C[C@@H]1N1CCCC1 | inactive: -0.03% |
| O=[N+]([O-])c1ccc2c(c1)nnn2O | inactive: 10.3% |
| CN(C)C(=O)c1cc([N+](=O)[O-])cc2c1-c1c(cc([N+](=O)[O-])cc1[N+](=O)[O-])C2=O | inactive: 28.3% |
| CCOP1(=S)c2c(C)nn(CCC#N)c2N=C(c2ccc(F)cc2)N1C (stereo unspecified) | inactive: -3.69% |
| CN(C(=O)Cc1ccccc1)[C@@H]1CC[C@]2(CCCO2)C[C@H]1N1CCCC1 | inactive: -3.61% |
| N#CCCN(C(=O)COC(=O)C(O)(c1ccccc1)c1ccccc1)c1ccc(F)cc1 | inactive: -4.08% |
| CS(=O)(=O)c1cc([N+](=O)[O-])c2no[n+]([O-])c2c1 | inactive: -1.98% |
| O=P(Nc1nccs1)(Oc1ccccc1)Oc1ccccc1 | inactive: -1.33% |
| O=P(Nc1nccs1)(c1ccccc1)c1nc2ccccc2s1 (stereo unspecified) | inactive: -8.91% |
| CCOP1(=S)c2c(C)nn(CCC#N)c2N=C(c2ccccc2F)N1C (stereo unspecified) | inactive: 0.72% |
| Nc1ccccc1[As](=O)(O)c1ccccc1 | inactive: -10.1% |
| O=C(O)COc1ccc([As](=O)(O)O)cc1[N+](=O)[O-] | inactive: -9.33% |
| Cc1ccc(OP(=O)(Nc2ccccn2)Oc2ccc(C)cc2)cc1 | inactive: 0.82% |
| CC(=O)NC(SC(=S)N(CC(C)C)CC(C)C)C(Cl)(Cl)Cl (stereo unspecified) | inactive: 3.97% |
| COC(=O)c1cc2c(s1)N=C(c1ccccc1)N(C)P2(=O)N1CCOCC1 (stereo unspecified) | inactive: 8.65% |
| CCC(=O)N1C2C3N(C(=O)CC)C1C1N(C(=O)CC)C(C(N1C(=O)CC)N3C(=O)CC)N2C(=O)CC | inactive: 4.49% |

| Compound | inhibition |
| --- | --- |
| O=C(OC1CN2CCC1CC2)c1ccccc1 (stereo unspecified) | inactive: 0.32% |
| CN(C)C(=O)Oc1noc2ccccc12 | inactive: 2.36% |
| CC(NC(=O)COC(=O)C(O)(c1ccccc1)c1ccccc1)c1ccccc1 (stereo unspecified) | inactive: -4.25% |
| Cc1ccccc1OP(=O)(Nc1ccccn1)Oc1ccccc1C | inactive: -1.8% |
| CCNC(=S)/N=C(\N)N[N+](=O)[O-] | inactive: -2.93% |
| O=C(NC1CCS(=O)(=O)C1)NP(=S)(Oc1ccccc1)Oc1ccccc1 (stereo unspecified) | inactive: 4.57% |
| CCOC(=O)NC(Sc1ccccc1)C(Cl)(Cl)Cl (stereo unspecified) | inactive: -8.37% |
| Cc1ccc(NP(=O)(Oc2cccc(C)c2)Oc2cccc(C)c2)nc1 | inactive: -4.67% |
| c1ccc(-c2nn[nH]n2)c(-c2nn[nH]n2)c1 | inactive: 4.79% |
| CC(=O)c1ccc(N2CC2c2ccncc2)cc1 (stereo unspecified) | inactive: 2.54% |
| C[C@H]1OP(=O)(Oc2ccccc2)C[C@@H]2O[C@@H]21 (stereo partly specified) | inactive: -2.14% |
| C[C@@H]1C=CCP(=O)(Oc2ccccc2)O1 (stereo partly specified) | inactive: 0.65% |
| Cc1ccccc1CN(C)C(=O)COC(=O)C(O)(c1ccccc1)c1ccccc1 | inactive: 3.15% |
| CC(=O)Nc1ccc(Oc2c([N+](=O)[O-])cc([N+](=O)[O-])cc2[N+](=O)[O-])cc1 | inactive: 8.34% |
| CC(=O)Nc1ccc([As](=O)(O)O)c(O)c1 | inactive: -15.7% |
| CCOc1ccc(C2=NCC(CBr)S2)cc1 (stereo unspecified) | inactive: -3.45% |
| O=P1(Nc2nc3ccc(Cl)cc3s2)COc2ccccc2O1 (stereo unspecified) | inactive: -1.35% |
| CC(C)(C)C(=O)NC(Sc1ccccc1)C(Cl)(Cl)Cl (stereo unspecified) | inactive: -2.94% |
| CC(C)C(=O)NC(Sc1ccccc1)C(Cl)(Cl)Cl (stereo unspecified) | inactive: -9.98% |
| O=P(Nc1nccs1)(c1ccccc1)c1ccccc1 | inactive: 7.87% |
| c1nnnn1CCn1cnnn1 | inactive: -4.94% |
| O=[N+]([O-])c1ccc(O)c(/C=N/Nc2ccc([N+](=O)[O-])cc2[N+](=O)[O-])c1 | inactive: 0.35% |
| O=[N+]([O-])c1ncn(CCn2cnc([N+](=O)[O-])n2)n1 | inactive: 5.18% |

Source: PubChem BioAssay AID2606 (The Scripps Research Institute Molecular Screening Center, 2010)
